{
  "source": "patent US20020192774A1",
  "about": "“Method for processing lignocellulosic material” (priority 2000, published 2002)",
  "key": {"[1]": {"system": "Thermoanaerobacter mathranii A3M4", "test": "Potential fermentation inhibitors during T. mathranii A3M4 fermentation of wet oxidised wheat straw medium", "settings": "after five days at 70° C., pH 6.8"}, "[2]": {"system": "consortium of thermophilic methanogenic Archaea", "test": "Thermophilic anaerobic wastewater treatment (methane production) of ethanol fermentation effluent", "settings": "after anaerobic wastewater treatment at 55° C."}, "Saccharomyces cerevisiae": {"system": "Saccharomyces cerevisiae", "test": "Potential fermentation inhibitors during S. cerevisiae fermentation of wet oxidised wheat straw medium", "settings": "for concentration at S. cerevisiae, end / T. mathranii, start: after five days at 30° C., pH 6.0; for concentration at S. cerevisiae, start: wet oxidised wheat straw medium 60 g/l straw, before yeast fermentation; for metabolised by S. cerevisiae: mesophilic hexose fermentation step, in words"}},
  "data": [
    {"compound": "O=C(O)c1ccco1", "note": "[2-Furoic acid]", "values": [
      {"measurement": "concentration at T. mathranii, end / Ww-treatment, start", "setting": "[1]", "result": 6.5, "unit": "mg/L"},
      {"measurement": "concentration at Ww-treatment, end", "setting": "[2]", "result": 0.0, "unit": "mg/L"},
      {"measurement": "concentration at S. cerevisiae, end / T. mathranii, start", "setting": "Saccharomyces cerevisiae", "result": 6.2, "unit": "mg/L"},
      {"measurement": "concentration at S. cerevisiae, start", "setting": "Saccharomyces cerevisiae", "result": 7.2, "unit": "mg/L"}
    ]},
    {"compound": "CC(=O)c1ccc(O)cc1", "note": "[4-hydroxy acetophenone]", "values": [
      {"measurement": "concentration at T. mathranii, end / Ww-treatment, start", "setting": "[1]", "result": 2.7, "unit": "mg/L"},
      {"measurement": "concentration at Ww-treatment, end", "setting": "[2]", "result": 0.2, "unit": "mg/L"},
      {"measurement": "concentration at S. cerevisiae, end / T. mathranii, start", "setting": "Saccharomyces cerevisiae", "result": 2.5, "unit": "mg/L"},
      {"measurement": "concentration at S. cerevisiae, start", "setting": "Saccharomyces cerevisiae", "result": 2.8, "unit": "mg/L"}
    ]},
    {"compound": "O=Cc1ccc(O)cc1", "note": "[4-hydroxybenzaldehyde]", "values": [
      {"measurement": "concentration at T. mathranii, end / Ww-treatment, start", "setting": "[1]", "result": 0.6, "unit": "mg/L"},
      {"measurement": "concentration at Ww-treatment, end", "setting": "[2]", "result": 0.0, "unit": "mg/L"},
      {"measurement": "concentration at S. cerevisiae, end / T. mathranii, start", "setting": "Saccharomyces cerevisiae", "result": 0.9, "unit": "mg/L"},
      {"measurement": "metabolised by S. cerevisiae", "setting": "Saccharomyces cerevisiae", "result": "almost completely metabolised"},
      {"measurement": "concentration at S. cerevisiae, start", "setting": "Saccharomyces cerevisiae", "result": 13.7, "unit": "mg/L"}
    ]},
    {"compound": "O=C(O)c1ccc(O)cc1", "note": "[4-hydroxybenzoic acid]", "values": [
      {"measurement": "concentration at Ww-treatment, end", "setting": "[2]", "result": 0.0, "unit": "mg/L"},
      {"measurement": "concentration at S. cerevisiae, end / T. mathranii, start", "setting": "Saccharomyces cerevisiae", "result": 22.8, "unit": "mg/L"},
      {"measurement": "concentration at S. cerevisiae, start", "setting": "Saccharomyces cerevisiae", "result": 23.7, "unit": "mg/L"}
    ]},
    {"compound": "CC(=O)O", "note": "[Acetic acid]", "values": [
      {"measurement": "concentration at Ww-treatment, end", "setting": "[2]", "result": 1.8, "unit": "mg/L"},
      {"measurement": "concentration at S. cerevisiae, end / T. mathranii, start", "setting": "Saccharomyces cerevisiae", "result": 23.0, "unit": "mg/L"},
      {"measurement": "concentration at S. cerevisiae, start", "setting": "Saccharomyces cerevisiae", "result": 23.5, "unit": "mg/L"}
    ]},
    {"compound": "COc1cc(C(C)=O)cc(OC)c1O", "note": "[Acetosyringone, 4-hydroxy-3,5dimethoxyacetophenone]", "values": [
      {"measurement": "concentration at Ww-treatment, end", "setting": "[2]", "result": 1.9, "unit": "mg/L"},
      {"measurement": "concentration at S. cerevisiae, end / T. mathranii, start", "setting": "Saccharomyces cerevisiae", "result": 19.0, "unit": "mg/L"},
      {"measurement": "concentration at S. cerevisiae, start", "setting": "Saccharomyces cerevisiae", "result": 17.4, "unit": "mg/L"}
    ]},
    {"compound": "COc1cc(C(C)=O)ccc1O", "note": "[Acetovanillione]", "values": [
      {"measurement": "concentration at Ww-treatment, end", "setting": "[2]", "result": 0.2, "unit": "mg/L"},
      {"measurement": "concentration at S. cerevisiae, end / T. mathranii, start", "setting": "Saccharomyces cerevisiae", "result": 5.0, "unit": "mg/L"},
      {"measurement": "concentration at S. cerevisiae, start", "setting": "Saccharomyces cerevisiae", "result": 5.0, "unit": "mg/L"}
    ]},
    {"compound": "COc1cccc(OC)c1O", "note": "[Syringol]", "values": [
      {"measurement": "concentration at Ww-treatment, end", "setting": "[2]", "result": 0.0, "unit": "mg/L"},
      {"measurement": "concentration at S. cerevisiae, end / T. mathranii, start", "setting": "Saccharomyces cerevisiae", "result": 2.8, "unit": "mg/L"},
      {"measurement": "concentration at S. cerevisiae, start", "setting": "Saccharomyces cerevisiae", "result": 2.3, "unit": "mg/L"}
    ]},
    {"compound": "COc1cc(C(=O)O)ccc1O", "note": "[Vanillic acid]", "values": [
      {"measurement": "concentration at T. mathranii, end / Ww-treatment, start", "setting": "[1]", "result": 30.6, "unit": "mg/L"},
      {"measurement": "concentration at Ww-treatment, end", "setting": "[2]", "result": 0.1, "unit": "mg/L"},
      {"measurement": "concentration at S. cerevisiae, end / T. mathranii, start", "setting": "Saccharomyces cerevisiae", "result": 31.2, "unit": "mg/L"},
      {"measurement": "concentration at S. cerevisiae, start", "setting": "Saccharomyces cerevisiae", "result": 32.3, "unit": "mg/L"}
    ]},
    {"compound": "COc1cc(/C=C/C(=O)O)ccc1O", "note": "[ferulic acid]", "values": [
      {"measurement": "concentration at T. mathranii, end / Ww-treatment, start", "setting": "[1]", "result": 3.0, "unit": "mg/L"},
      {"measurement": "concentration at Ww-treatment, end", "setting": "[2]", "result": 0.2, "unit": "mg/L"},
      {"measurement": "concentration at S. cerevisiae, end / T. mathranii, start", "setting": "Saccharomyces cerevisiae", "result": 3.4, "unit": "mg/L"},
      {"measurement": "concentration at S. cerevisiae, start", "setting": "Saccharomyces cerevisiae", "result": 2.1, "unit": "mg/L"}
    ]},
    {"compound": "COc1ccccc1O", "note": "[guaiacol]", "values": [
      {"measurement": "concentration at T. mathranii, end / Ww-treatment, start", "setting": "[1]", "result": 8.2, "unit": "mg/L"},
      {"measurement": "concentration at Ww-treatment, end", "setting": "[2]", "result": 0.0, "unit": "mg/L"},
      {"measurement": "concentration at S. cerevisiae, end / T. mathranii, start", "setting": "Saccharomyces cerevisiae", "result": 8.0, "unit": "mg/L"},
      {"measurement": "concentration at S. cerevisiae, start", "setting": "Saccharomyces cerevisiae", "result": 8.5, "unit": "mg/L"}
    ]},
    {"compound": "O=C(O)/C=C/c1ccc(O)cc1", "note": "[p-coumaric acid]", "values": [
      {"measurement": "concentration at T. mathranii, end / Ww-treatment, start", "setting": "[1]", "result": 4.7, "unit": "mg/L"},
      {"measurement": "concentration at Ww-treatment, end", "setting": "[2]", "result": 0.0, "unit": "mg/L"},
      {"measurement": "concentration at S. cerevisiae, end / T. mathranii, start", "setting": "Saccharomyces cerevisiae", "result": 5.1, "unit": "mg/L"},
      {"measurement": "concentration at S. cerevisiae, start", "setting": "Saccharomyces cerevisiae", "result": 5.0, "unit": "mg/L"}
    ]},
    {"compound": "COc1cc(C=O)ccc1O", "note": "[vanillin]", "values": [
      {"measurement": "concentration at T. mathranii, end / Ww-treatment, start", "setting": "[1]", "result": 1.1, "unit": "mg/L"},
      {"measurement": "concentration at Ww-treatment, end", "setting": "[2]", "result": 0.1, "unit": "mg/L"},
      {"measurement": "concentration at S. cerevisiae, end / T. mathranii, start", "setting": "Saccharomyces cerevisiae", "result": 1.9, "unit": "mg/L"},
      {"measurement": "metabolised by S. cerevisiae", "setting": "Saccharomyces cerevisiae", "result": "almost completely metabolised"},
      {"measurement": "concentration at S. cerevisiae, start", "setting": "Saccharomyces cerevisiae", "result": 10.6, "unit": "mg/L"}
    ]}
  ]
}
